Measured values from several laboratories, pooled; numbers as filed in NIAID ChemDB.

All rows: growth or infection tests; agent: Cryptococcus neoformans; measure: MIC

Rows are shuffled and stem from different studies.

compound,strain or isolate,value
COc1ccc(N2CCN(CCc3nnn(CC(O)(Cn4cncn4)c4ccc(F)cc4F)n3)CC2)cc1,LA314,>16 µg/mL
Cc1cc(NS(=O)(=O)c2ccc(N)cc2)no1,IFM 49624,32 µg/mL
CCCCOc1ccccc1N1CCN(CCc2nnnn2CC(O)(Cn2cncn2)c2ccc(F)cc2F)CC1,LA314,>16 µg/mL
O=C1/C(=C/c2ccccc2)CSc2ccc(Cl)cc21,25,6 µg/mL
O=[N+]([O-])c1ccc(N2CCN(CCc3nnnn3CC(O)(Cn3cncn3)c3ccc(F)cc3F)CC2)cc1,LA314,8 µg/mL
COc1cc(/C=C2\CSc3ccccc3C2=O)ccc1O,93/V,6 µg/mL
CCC(C)n1ncn(-c2ccc(N3CCN(c4ccc(OC[C@H]5CO[C@](Cn6cncn6)(c6ccc(Cl)cc6Cl)O5)cc4)CC3)cc2)c1=O,H99,0.008 µg/mL
OC(Cn1cncn1)(Cn1cncn1)c1ccc(F)cc1F,TIMM0354,50 µg/mL
COc1ccc(/C=C2\CS(=O)(=O)c3ccccc3C2=O)cc1,93/V,25 µg/mL
N#CC1=C(N)OC2=C(CSc3ccccc32)C1c1ccc2c(c1)OCO2,93/V,50 µg/mL
Cc1noc(NS(=O)(=O)c2ccc(N)cc2)c1C,IFM 49722,128 µg/mL
COc1ccc2c(c1)-c1nc(OC)c(C#N)c(-c3ccc4c(c3)OCO4)c1CS2,25,3 µg/mL
C=CC[C@@H]1/C=C(/C)C[C@H](C)C[C@H](OC)[C@H]2O[C@@](O)(C(=O)C(=O)N3CCCC[C@H]3C(=O)O[C@H](/C(C)=C/[C@@H]3CC[C@@H](O)[C@H](OC)C3)[C@H](C)[C@@H](O)CC1=O)[C@H](C)C[C@@H]2OC,H99,0.19 µg/mL
OC(Cn1cncn1)(Cn1nnc(CCN2CCN(Cc3ccccc3)CC2)n1)c1ccc(F)cc1F,LA314,>16 µg/mL
COc1ccc(/C=C2\CSc3ccccc3C2=O)cc1,Farwania,25 µg/mL
COc1cc(O)c2c(c1)C(=O)c1c(cc3c(c1O)-c1c(cc(C)c(C(=O)NCC(=O)O)c1O)[C@H](OC1OC(C)C(N(C)C)C(OC4OCC(O)C(O)C4O)C1O)[C@H]3O)C2=O,D49,1.6 µg/mL
N#CC1=C(N)OC2=C(CSc3ccccc32)C1c1ccc(-c2ccccc2)cc1,93/V,50 µg/mL
COc1ccc2c(c1)C(=O)/C(=C/c1ccc3c(c1)OCO3)CS2,Farwania,25 µg/mL
COc1ccccc1-c1c(C#N)c(OC)nc2c1CSc1ccc(Cl)cc1-2,Farwania,6 µg/mL
Nc1ccc(S(=O)(=O)Nc2ccnn2-c2ccccc2)cc1,IFM 40216,≤4 µg/mL
COc1ccc2c(c1)C(=O)/C(=C/c1ccc3c(c1)CC3)CO2,Farwania,12.5 µg/mL
C[C@H](n1nnc(CCN2CCN(c3ccc([N+](=O)[O-])cc3)CC2)n1)[C@](O)(Cn1cncn1)c1ccc(F)cc1F,LA314,4 µg/mL
N#CC1=C(N)OC2=C(CSc3ccc(Cl)cc32)C1c1cccc2ccccc12,Farwania,25 µg/mL
CCCCCOc1ccc(-c2cc(-c3ccc(C(=O)N[C@H]4C[C@@H](O)[C@@H](O)NC(=O)[C@@H]5[C@@H](O)[C@@H](C)CN5C(=O)[C@H]([C@H](O)CC(N)=O)NC(=O)[C@H]([C@H](O)[C@@H](O)c5ccc(O)c(OS(=O)(=O)O)c5)NC(=O)[C@@H]5C[C@@H](O)CN5C(=O)[C@H]([C@@H](C)O)NC4=O)cc3)no2)cc1,FMR 8416,64 µg/mL
O=[N+]([O-])c1ccc(N2CCN(CCc3nnn(CC(O)(Cn4cncn4)c4ccc(F)cc4F)n3)CC2)cc1,LA314,8 µg/mL
Cc1cc(NS(=O)(=O)c2ccc(N)cc2)nc(C)n1,IFM 40216,≥256 µg/mL
C[C@H]([C@](O)(Cn1cncn1)c1ccc(F)cc1F)S(C)(=O)=O,R717 (AZOLE-R),10 µM
COc1ccc(/C=C2\CCc3ccccc3C2=O)cc1OC,Farwania,25 µg/mL
N#CC1=C(c2ccccc2)C2=C(NC1O)c1ccccc1SC2,25,25 µg/mL
COc1ccccc1/C=C1\CSc2ccccc2C1=O,25,25 µg/mL
COc1ccccc1C1C(C#N)=C(N)OC2=C1CSc1ccccc12,25,1.25 µg/mL
COc1ccc(/C=C2\COc3ccc(-c4ccccc4)cc3C2=O)cc1OC,Farwania,100 µg/mL
COc1ccc(N2CCN(CCc3nnnn3CC(O)(Cn3cncn3)c3ccc(F)cc3F)CC2)cc1,LA314,>16 µg/mL

2 of the rows above, restated:

compound,strain or isolate,value
COc1cc(O)c2c(c1)C(=O)c1c(cc3c(c1O)-c1c(cc(C)c(C(=O)NCC(=O)O)c1O)[C@H](OC1OC(C)C(N(C)C)C(OC4OCC(O)C(O)C4O)C1O)[C@H]3O)C2=O,D49,1.6 µg/mL
N#CC1=C(N)OC2=C(CSc3ccccc32)C1c1ccc2c(c1)OCO2,93/V,50 µg/mL